A mixed list of measured activities; the numbers were collected in NIAID ChemDB.

All rows: tests in culture; species: Mycobacterium avium complex; measure: MIC

a–b is a range or a potency band. Neighbouring rows are from separate reports.

smiles | strain | result
CC[C@H]1OC(=O)[C@H](C)[C@@H](OC2C[C@@](C)(OC)[C@@H](O)[C@H](C)O2)[C@H](C)[C@@H](O[C@@H]2O[C@H](C)C[C@H](N(C)C)[C@H]2O)C(C)(O)C[C@@H](C)/C(=N\OCCCOc2ccccc2)[C@H](C)[C@@H](O)[C@]1(C)O | 20092 | 3.13 µg/mL
Nc1ccc(S(=O)(=O)c2ccc(N)cc2)cc1 | FAR | 64 µg/mL
CCc1c(CNc2cc(C)ccc2OC)cnc2nc(N)nc(N)c12 | NJ168 | ≤0.13 µg/mL
CC1(C)N=C(N)N=C(N)N1OCCCOc1cc(Cl)c(Cl)cc1Cl | DW20 | 1 µg/mL
CCc1c(CNc2cc(C(F)(F)F)ccc2OC)cnc2nc(N)nc(N)c12 | NJ3404 | ≤0.13 µg/mL
CC[C@H]1OC(=O)[C@H](C)[C@@H](OC2C[C@@](C)(OC)[C@@H](O)[C@H](C)O2)[C@H](C)[C@@H](O[C@@H]2O[C@H](C)C[C@H](N(C)C)[C@H]2O)C(C)(O)C[C@@H](C)/C(=N\OCCCCc2ccccc2)[C@H](C)[C@@H](O)[C@]1(C)O | 20092 | 6.25 µg/mL
COc1ccc(C(F)(F)F)cc1N(C)Cc1cnc2nc(N)nc(N)c2c1C | NJ211 | ≤0.13 µg/mL
CC[C@H]1OC(=O)[C@H](C)[C@@H](OC2C[C@@](C)(OC)[C@@H](O)[C@H](C)O2)[C@H](C)[C@@H](O[C@@H]2O[C@H](C)C[C@H](N(C)C)[C@H]2O)C(C)(O)C[C@@H](C)/C(=N\OCCc2cccs2)[C@H](C)[C@@H](O)[C@]1(C)O | 20039 | 1.56 µg/mL
Cc1cccc(C)c1Sc1ncnc2nc[nH]c12 | NJ211 | >12.8 µg/mL
CC1(C)S[C@@H]2[C@H](NC(=O)[C@H](C(=O)[O-])c3ccsc3)C(=O)N2[C@H]1C(=O)[O-].[Na+].[Na+] | CIPT 140310012 | 50 µg/mL
CO[C@H]1/C=C/O[C@@]2(C)Oc3c(C)c(O)c4c(O)c(c(/C=N/N5CCN(C6CCCC6)CC5)c(O)c4c3C2=O)NC(=O)/C(C)=C\C=C\[C@H](C)[C@H](O)[C@@H](C)[C@@H](O)[C@@H](C)[C@H](OC(C)=O)[C@@H]1C | T | 0.5 µg/mL
c1ccc(CSc2ncccn2)cc1 | NJ211 | >12.8 µg/mL
CC(C)N=C(N)/N=C(\N)NOCCCOc1cc(Cl)c(Cl)cc1Cl | 3009 | 64 µg/mL
COc1cccc(SCc2cnc3nc(N)nc(N)c3c2C)c1 | NJ211 | ≤0.13 µg/mL
CC1(C)S[C@@H]2[C@H](NC(=O)C(C(=O)O)c3ccccc3)C(=O)N2[C@H]1C(=O)O | CIPT 140310006 | 25 µg/mL
COCc1c(CNc2cc(OC)ccc2OC)cnc2nc(N)nc(N)c12 | NJ168 | >13 µg/mL
Clc1ccc(Sc2nc(Cl)nc3nc[nH]c23)cc1 | NJ211 | >12.8 µg/mL
CC[C@H]1OC(=O)[C@H](C)[C@@H](O[C@H]2C[C@@](C)(OC)[C@@H](O)[C@H](C)O2)[C@H](C)[C@@H](O[C@@H]2O[C@H](C)C[C@H](N(C)C)[C@H]2O)[C@](C)(OC)C[C@@H](C)C(=O)[C@H](C)[C@@H](O)[C@]1(C)O | D-3 | 4 µg/mL
C/C(=N\NC(N)=S)c1cccnc1 | 108 | 1 µg/mL
C[C@@H]1CN(c2c(F)c(N)c3c(=O)c(C(=O)O)cn(C4CC4)c3c2F)C[C@H](C)N1 | Isolate 90-0827 | 0.5 µg/mL
CC(C)N=C(N)N(OCCCOc1cc(Cl)c(Cl)cc1Cl)C(=N)N | 101 | 16 µg/mL
Nc1ccc(S(=O)(=O)c2ccc(N)cc2)cc1 | DW14 | 32 µg/mL
NNC(=O)c1ccncc1 | 13011 | 0.63–0.8 µg/mL
CC[C@H]1OC(=O)[C@H](C)[C@@H](OC2C[C@@](C)(OC)[C@@H](O)[C@H](C)O2)[C@H](C)[C@@H](O[C@@H]2O[C@H](C)C[C@H](N(C)C)[C@H]2O)C(C)(O)C[C@@H](C)/C(=N\OCCc2ccccc2)[C@H](C)[C@@H](O)[C@]1(C)O | 20092 | >50 µg/mL
CN[C@@H]1[C@H](O[C@H]2[C@H](O[C@H]3[C@H](O)[C@@H](O)[C@H](N=C(N)N)[C@@H](O)[C@@H]3N=C(N)N)O[C@@H](C)[C@]2(O)C=O)O[C@@H](CO)[C@H](O)[C@H]1O | CIPT 140310012 | 6 µg/mL
CCCCO/N=C1\[C@H](C)CC(C)(O)[C@H](O[C@@H]2O[C@H](C)C[C@H](N(C)C)[C@H]2O)[C@@H](C)[C@H](OC2C[C@@](C)(OC)[C@@H](O)[C@H](C)O2)[C@@H](C)C(=O)O[C@H](CC)[C@@](C)(O)[C@H](O)[C@H]1C | 20039 | 0.78 µg/mL
NNC(=O)c1ccncc1 | 905 | 4 µg/mL
CCCOc1ccc(NCc2cnc3nc(N)nc(N)c3c2C)cc1OC | NJ211 | ≤0.13 µg/mL
Cc1cccc(Sc2ncccn2)c1 | NJ211 | >12.8 µg/mL
CCCCCCCCCCO/N=C1\[C@H](C)CC(C)(O)[C@H](O[C@@H]2O[C@H](C)C[C@H](N(C)C)[C@H]2O)[C@@H](C)[C@H](OC2C[C@@](C)(OC)[C@@H](O)[C@H](C)O2)[C@@H](C)C(=O)O[C@H](CC)[C@@](C)(O)[C@H](O)[C@H]1C | 20096 | 6.25 µg/mL
Cc1c(CNc2ccc(Cl)c3ccccc23)cnc2nc(N)nc(N)c12 | NJ3404 | ≤0.13 µg/mL
CCCCCCCCSc1nc(Cl)nc2nc[nH]c12 | NJ211 | >12.8 µg/mL
CC[C@H]1OC(=O)[C@H](C)[C@@H](OC2C[C@@](C)(OC)[C@@H](O)[C@H](C)O2)[C@H](C)[C@@H](O[C@@H]2O[C@H](C)C[C@H](N(C)C)[C@H]2O)C(C)(O)C[C@@H](C)/C(=N\OCCCCOc2ccccc2)[C@H](C)[C@@H](O)[C@]1(C)O | 20096 | 6.25 µg/mL
CC[C@H]1OC(=O)[C@H](C)[C@@H](O[C@H]2C[C@@](C)(OC)[C@@H](O)[C@H](C)O2)[C@H](C)[C@@H](O[C@@H]2O[C@H](C)C[C@H](N(C)C)[C@H]2O)[C@](C)(OC)C[C@@H](C)C(=O)[C@H](C)[C@@H](O)[C@]1(C)O | Isolate 90-0711 | 2 µg/mL
CCCO/N=C1\[C@H](C)CC(C)(O)[C@H](O[C@@H]2O[C@H](C)C[C@H](N(C)C)[C@H]2O)[C@@H](C)[C@H](OC2C[C@@](C)(OC)[C@@H](O)[C@H](C)O2)[C@@H](C)C(=O)O[C@H](CC)[C@@](C)(O)[C@H](O)[C@H]1C | 20096 | >50 µg/mL
Cc1cc(NCc2cnc3nc(N)nc(N)c3c2C)c(Cl)cc1F | NJ3404 | ≤0.13 µg/mL
NC[C@H]1O[C@H](O[C@H]2[C@H](O)[C@@H](O[C@H]3O[C@H](CO)[C@@H](O)[C@H](N)[C@H]3O)[C@H](N)C[C@@H]2N)[C@H](O)[C@@H](O)[C@@H]1O | CIPT 140310003 (rough) | 5 µg/mL

For reference, 2 entries again:

smiles	strain	result
NNC(=O)c1ccncc1	905	4 µg/mL
CC[C@H]1OC(=O)[C@H](C)[C@@H](OC2C[C@@](C)(OC)[C@@H](O)[C@H](C)O2)[C@H](C)[C@@H](O[C@@H]2O[C@H](C)C[C@H](N(C)C)[C@H]2O)C(C)(O)C[C@@H](C)/C(=N\OCCc2cccs2)[C@H](C)[C@@H](O)[C@]1(C)O	20039	1.56 µg/mL